Data from the supplement of paper PMC9931576.
Human monoclonal antibodies against the spike receptor-binding domain (heavy:light variable regions). IC50 against pseudoviruses bearing the spike of naturally observed variants; lower = stronger; >10 µg/ml means not reached at the top dose. No active / inactive call. The stated detection limit is 0.0005 µg/ml; values near or below 0.001 µg/ml lie at the floor of the assay.

B1: BD55-6071 (protein)
chain 1: EVQLVESGGGLVQPGRSLRLSCTTSGFSFGDYALSWFRQAPGKGPEWIGFIRSKTDGGTTEYAASLRGRFTISRDDSKSVAYLQLNSLKTEDTAVYYCTREGKFSYYYYYAMDVWGQGTTVTVSS
chain 2: DIQMTQSPSSLSASVGDRVTITCRTSQSISYYLNWYQQKPGKAPKLLIYAASSLQSGVPSRFSGSGSGTDFTLTISSLQPEDFATYYCQQSYSISLTFGGGTNVEIK
B2: BD55-6063 (protein)
chain 1: QVHLVQSGAAVRKPGSSVKVSCRASGGTFSSNAISWVRRAPGQGLEWMGRIIPIFGKVNYAQKFQGRVTITADESTGTAYMELSSLRSEDTAVYYCARAGVLGGAGSYYIADFWGQGTLVTVSS
chain 2: NFLLTQPHSVSESPGKTVAISCTRSSGSIDTDYVQWYQQRPDSAPTTVIFENDQRPSGVPVRFSGSFDISSNSASLTISGLKTEDEADYYCQSYDGVNQAWVFGGGTKLTVL
B3: BD55-6130 (protein)
chain 1: QVQLQESGPRLVKPSETLSLTCTVSGDSISNYYWSWIRQSPGKGLEWIGYISSTGSTDYTPSLQSRVTMSIDTSKNQFSLKLRSVTAADRAVYYCARDKCSSTSCWGGYYFDSWGQGTLVTVSS
chain 2: DIQMTQSPSSLSASVGDRVTITCRASQSISSYLHWYQQSPGKAPKLLVYAASSLQSGVPSRFSGSGSGTDFTLTISGLQPEDFATYYCQQSYSTPRTFGQGTKVEIK
B4: BD55-6044 (protein)
chain 1: EVHLVESGGGLVQPGGSLRLSCAASGFTFSSYGMHWVRQAPGRGLEYVSSISSSGGGTFYADSVKGRFIISRDNSKNTLYLQMGSLRAEDTAVYYCAREGYSDYDFLRWFFDYWGQGTLVTVSS
chain 2: DIQMTQSPSSLSASVGDRVTITCRASQSITTYLNWYQQQPGKAPKLLIYAASSLQSGVPSRFSGSGSGTDFTLTISSLQPEDFATYYCQQSYTSPLYTFGQGTKLEIK
B5: BD55-6068 (protein)
chain 1: EEQLLESGGGLVQPGGSLRLSCAASGFTFSNYAMSWVRQAPGKGLEWVSALSNTGGATYYADSVKGRFTVSRDDSKNTLYLQMNSLRAEDTAVYYCAKNWDSIGYTSGWQHLDWFDPWGQGTLVTVSS
chain 2: DIQMTQSPSSLSASVGDRVTITCRASQSIGSYLNWYQQKPGKAPKLLINVASSLQSGVPSRFSGSGSGTDFTLTINSLQPEDFATYYCQQSYTSPSITFGQGTRLEIK
B6: BD55-6052 (protein)
chain 1: EVQLVQSGGGLVQPGGSLRLSCAASGFTFSNYAMHWVRQAPGKGPEYVSSITSDGSGTFYADSVKGRFTISRDNSKNTLFLQMGSLRAEDMAVYYCAREEVDGYNLGGFNYWGQGTPVIVSS
chain 2: DIQMTQSPSSLSASVGARVTITCRASQSISIYLNWYQQKPGKAPKLLIYGASSLQSGVPSRFSGSGSGTDFTLTISSLQPEDFATYYCQQSYTTPEYTFGQGTKLEIK
B7: BD55-6086 (protein)
chain 1: QVQLVESGGGVVQPGRSLKLSCAASGFPFSTYAMHWVRQAPGKGLEWVAVISFDSNDEYYADSVKGRFTISRDNSKNTLYLQMNTLRAEDTALYYCARAGVLRYFDWLLSSGFAFWGQGTLVTVSS
chain 2: DIQMTQSPSFLSASVGDRVTITCQASQDIRNYLNWYQQKPGKAPKLLIADASSLEAGVPSRFSGSGSGTHFIISISSLQPEDIATYYCQQYYNLPSFGQGTKLEIK
B8: BD55-6060 (protein)
chain 1: EVQLVESGGGLVQPGGSLRLSCAASGFTFSSYDMHWVRQATGKGLEWVSVIDTAGDTDYLGSVKGRFTISRENAKNSLYLQMNSLRAGDTAVYYCARGYPHYDILAGFHYYYYGMDVWGQGTTVTVSS
chain 2: QTVVTQEPSLTVSPGGTVTLTCASSTGTVTSGYYPNWFQQKPGQAPRALIYSTSNKHSWTPARFSGSLLGGKAALTLSGVQPEDEAEYYCLLYYGGAQLVFGGGTKLTVL
B9: BD55-6075 (protein)
chain 1: EVHLVESGGGLIQPGRSLRLSCAASGFTFGDYAMHWVRQPPGKALEWVSSISSDGRITDHADSVKGRFTISRDNAKSSLSLQMNSLRTEDTAFYYCVKDTDVARSLTTLFEFWGQGTLVTVSS
chain 2: DIQMTQSPSALSASVGDRVTITCRASQTISRNLNWYQQRPGKAPRLLIYEASHLQSGVPSRFSGSGSGTDFSLTISSLQPEDFATYYCQQSYVTPQVTFGPGTKVDV
B10: BD55-6066 (protein)
chain 1: EVQLVQSGAEVKKPGESLKISCKGSGYTFTNYWITWVRQMPGKGLEWMGMIDPSDSYSDYSPSFQGHVTISADKAISTAYLQWSNLKASDSAMYYCARHMQQLEPSDFWGPGTLVTVSS
chain 2: EIVLTQSPDFQSVTPKEKVTITCRASRSIGSSLHWYQQKPGQSPKLLIIYASQSFSGVPSRFSGSGSGTDFTLTINGLEAEDAATYYCHHSNSLLGLTFGGGTKVEIK
B11: BD55-6050 (protein)
chain 1: QVQLVQSGAEVKKPGASVKVSCKASGYTFTSSEINWVRQATGQGLEWMGWMNPNSGDTGYAQKFQGRVTLTRSTSTNTAYMELSSLGSEDTAVYYCARGRDYYERGTYFNPHGPYYYYGMDVWGQGTTVTVSS
chain 2: QSVLTQPPSASGTPGQRVIISCSGGSSNIGYNTVNWYQQVAGTAPRLLIYSDNQRPSGVPDRFSGSESGTSASLAISGLQSDDEADYYCASWDDSLNGWVFGGGTKLTVL
B12: BD55-6096 (protein)
chain 1: EVQLVESGGGLVRPGRSLRLSCTASGFSFGDYALSWVRQAPGKGLEWVGFIRSRAFGGTTEYAASVKGRFTISRDDSKNIAHLQMNSLKIEDTALYFCTREFFTGTDLGFYYYMDVWGKGTTVTVSS
chain 2: DIQLTQSPSTLSASVGDRVTITCRASQSVNTWLAWYQEKPGKAPKVLIYKASTLETGVPSRFSGSGFGTEFTLTISSLQPDDFATYYCQQYNGFLYTFGQGTKLEIK

Each binder was assayed against SARS-CoV-2 Omicron BA.1 spike pseudovirus (assay: pseudovirus neutralization IC50; higher = weaker neutralization).
Method: (§1)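 Single-round VSV luciferase pseudovirus mixed with antibody dilutions for 1 h and put on Huh-7 cells for about a day; IC50 from the dose curve.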

| Binder | pseudovirus neutralization IC50 [µg/mL] |
| --- | --- |
| B1 | > 10 |
| B2 | > 10 |
| B3 | > 10 |
| B4 | > 10 |
| B5 | > 10 |
| B6 | > 10 |
| B7 | > 10 |
| B8 | > 10 |
| B9 | > 10 |
| B10 | > 10 |
| B11 | > 10 |
| B12 | > 10 |

Each binder was assayed against SARS-CoV-2 Omicron BA.2 spike pseudovirus in the same assay as above.
Method: as §1

| Binder | pseudovirus neutralization IC50 [µg/mL] |
| --- | --- |
| B1 | > 10 |
| B2 | > 10 |
| B3 | > 10 |
| B4 | > 10 |
| B5 | > 10 |
| B6 | > 10 |
| B7 | > 10 |
| B8 | > 10 |
| B9 | > 10 |
| B10 | > 10 |
| B11 | > 10 |
| B12 | > 10 |

Each binder was assayed against SARS-CoV-2 Omicron BA.2.75 spike pseudovirus in the same assay as above.
Method: as §1

| Binder | pseudovirus neutralization IC50 [µg/mL] |
| --- | --- |
| B1 | > 10 |
| B2 | > 10 |
| B3 | > 10 |
| B4 | > 10 |
| B5 | > 10 |
| B6 | > 10 |
| B7 | > 10 |
| B8 | > 10 |
| B9 | > 10 |
| B10 | > 10 |
| B11 | > 10 |
| B12 | > 10 |

Each binder was assayed against SARS-CoV-2 Omicron BA.5 spike pseudovirus in the same assay as above.
Method: as §1

| Binder | pseudovirus neutralization IC50 [µg/mL] |
| --- | --- |
| B1 | > 10 |
| B2 | > 10 |
| B3 | > 10 |
| B4 | > 10 |
| B5 | > 10 |
| B6 | > 10 |
| B7 | > 10 |
| B8 | > 10 |
| B9 | > 10 |
| B10 | > 10 |
| B11 | > 10 |
| B12 | > 10 |

What follows are binders tested against SARS-CoV-2 Omicron BQ.1.1 spike pseudovirus in the same assay as above.
Method: as §1

| Binder | pseudovirus neutralization IC50 [µg/mL] |
| --- | --- |
| B1 | > 10 |
| B2 | > 10 |
| B3 | > 10 |
| B4 | > 10 |
| B5 | > 10 |
| B6 | > 10 |
| B7 | > 10 |
| B8 | > 10 |
| B9 | > 10 |
| B10 | > 10 |
| B11 | > 10 |
| B12 | > 10 |

What follows are binders tested against SARS-CoV-2 Omicron XBB spike pseudovirus in the same assay as above.
Method: as §1

| Binder | pseudovirus neutralization IC50 [µg/mL] |
| --- | --- |
| B1 | > 10 |
| B2 | > 10 |
| B3 | > 10 |
| B4 | > 10 |
| B5 | > 10 |
| B6 | > 10 |
| B7 | > 10 |
| B8 | > 10 |
| B9 | > 10 |
| B10 | > 10 |
| B11 | > 10 |
| B12 | > 10 |

These binders were tested against SARS-CoV-2 early D614G spike pseudovirus in the same assay as above.
Method: as §1

| Binder | pseudovirus neutralization IC50 [µg/mL] |
| --- | --- |
| B1 | > 10 |
| B2 | 0.0701 |
| B3 | > 10 |
| B4 | > 10 |
| B5 | 0.0315 |
| B6 | > 10 |
| B7 | 0.1 |
| B8 | > 10 |
| B9 | 1.01 |
| B10 | 0.0309 |
| B11 | > 10 |
| B12 | > 10 |
